Experimental data published in patent US20060246541A1.

Target: GPIIb/IIIa (integrin αIIbβ3), not stated
Assay: cell-based or functional assay

For Vicrostatin, the IC50, inhibition of ADP-induced platelet aggregation was 60 nM.
